Results taken from paper PMC6024821, “Synthesis, Structure and Biological Activity of CIA and CIB, Two α-Conotoxins from the Predation-Evoked Venom of Conus catus” (2018).
pIC50: −log10 of the molar value. Several values for one entry are separate records, joined by “and”; a condition that tells them apart may be missing. Identical values can stand only once.

Chains of the proteins cited; added tags and fusions are not shown. Lines headed by an entry give the natural chain unless they say otherwise; changes in a name come on top. Residues count along the entry.
UniProt P04757, 26-499 limits assumed: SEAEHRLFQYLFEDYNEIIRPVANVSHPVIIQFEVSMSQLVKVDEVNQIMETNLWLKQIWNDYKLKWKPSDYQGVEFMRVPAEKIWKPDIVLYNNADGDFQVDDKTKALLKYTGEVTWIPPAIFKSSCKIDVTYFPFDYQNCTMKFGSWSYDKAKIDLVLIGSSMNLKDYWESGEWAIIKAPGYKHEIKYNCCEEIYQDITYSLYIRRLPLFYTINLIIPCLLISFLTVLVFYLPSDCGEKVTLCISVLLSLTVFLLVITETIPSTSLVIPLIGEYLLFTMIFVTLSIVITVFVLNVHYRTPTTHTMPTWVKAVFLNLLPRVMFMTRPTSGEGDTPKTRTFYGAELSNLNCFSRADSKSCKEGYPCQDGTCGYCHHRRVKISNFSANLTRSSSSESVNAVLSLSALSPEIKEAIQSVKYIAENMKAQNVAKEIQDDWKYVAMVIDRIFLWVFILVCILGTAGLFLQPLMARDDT
UniProt P12390, 25-500 limits assumed: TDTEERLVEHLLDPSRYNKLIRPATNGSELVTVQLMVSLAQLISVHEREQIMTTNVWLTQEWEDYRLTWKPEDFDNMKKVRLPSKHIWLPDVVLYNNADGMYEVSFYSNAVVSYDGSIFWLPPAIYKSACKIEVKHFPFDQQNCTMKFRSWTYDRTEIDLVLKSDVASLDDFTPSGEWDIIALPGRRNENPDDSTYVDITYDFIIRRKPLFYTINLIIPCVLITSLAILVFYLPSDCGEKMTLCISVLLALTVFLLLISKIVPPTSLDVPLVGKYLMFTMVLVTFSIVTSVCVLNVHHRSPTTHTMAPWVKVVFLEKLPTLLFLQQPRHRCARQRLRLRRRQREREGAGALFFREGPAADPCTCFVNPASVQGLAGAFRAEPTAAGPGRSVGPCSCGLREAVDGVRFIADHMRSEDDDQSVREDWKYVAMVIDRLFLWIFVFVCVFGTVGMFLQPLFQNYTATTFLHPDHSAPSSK
UniProt Q05941, 23-502 limits assumed: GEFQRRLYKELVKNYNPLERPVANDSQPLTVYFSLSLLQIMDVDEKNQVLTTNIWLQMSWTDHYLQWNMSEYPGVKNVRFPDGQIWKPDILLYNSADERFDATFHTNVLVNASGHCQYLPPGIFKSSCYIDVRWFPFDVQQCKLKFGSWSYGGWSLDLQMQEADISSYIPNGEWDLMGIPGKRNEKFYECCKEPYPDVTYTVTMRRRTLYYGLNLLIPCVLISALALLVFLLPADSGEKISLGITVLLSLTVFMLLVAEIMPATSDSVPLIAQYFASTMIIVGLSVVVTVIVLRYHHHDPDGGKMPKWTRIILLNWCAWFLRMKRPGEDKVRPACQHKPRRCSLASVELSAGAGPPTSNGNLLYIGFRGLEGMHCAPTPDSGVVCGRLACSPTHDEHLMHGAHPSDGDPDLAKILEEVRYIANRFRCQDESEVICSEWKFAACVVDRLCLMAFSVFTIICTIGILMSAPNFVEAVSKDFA
UniProt P18916, 23-519 limits assumed: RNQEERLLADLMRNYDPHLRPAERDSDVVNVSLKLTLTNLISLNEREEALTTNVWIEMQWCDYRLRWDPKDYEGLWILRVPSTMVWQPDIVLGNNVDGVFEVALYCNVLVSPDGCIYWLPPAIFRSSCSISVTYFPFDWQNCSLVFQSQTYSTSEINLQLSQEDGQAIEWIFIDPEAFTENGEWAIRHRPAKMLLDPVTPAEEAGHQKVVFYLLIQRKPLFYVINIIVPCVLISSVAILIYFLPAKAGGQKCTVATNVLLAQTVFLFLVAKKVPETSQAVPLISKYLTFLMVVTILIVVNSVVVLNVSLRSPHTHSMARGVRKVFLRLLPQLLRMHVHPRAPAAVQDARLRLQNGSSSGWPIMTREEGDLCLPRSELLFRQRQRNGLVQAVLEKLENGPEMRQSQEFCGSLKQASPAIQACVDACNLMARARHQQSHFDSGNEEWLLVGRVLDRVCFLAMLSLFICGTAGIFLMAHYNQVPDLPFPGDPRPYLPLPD
UniProt P25108, 21-457 limits assumed: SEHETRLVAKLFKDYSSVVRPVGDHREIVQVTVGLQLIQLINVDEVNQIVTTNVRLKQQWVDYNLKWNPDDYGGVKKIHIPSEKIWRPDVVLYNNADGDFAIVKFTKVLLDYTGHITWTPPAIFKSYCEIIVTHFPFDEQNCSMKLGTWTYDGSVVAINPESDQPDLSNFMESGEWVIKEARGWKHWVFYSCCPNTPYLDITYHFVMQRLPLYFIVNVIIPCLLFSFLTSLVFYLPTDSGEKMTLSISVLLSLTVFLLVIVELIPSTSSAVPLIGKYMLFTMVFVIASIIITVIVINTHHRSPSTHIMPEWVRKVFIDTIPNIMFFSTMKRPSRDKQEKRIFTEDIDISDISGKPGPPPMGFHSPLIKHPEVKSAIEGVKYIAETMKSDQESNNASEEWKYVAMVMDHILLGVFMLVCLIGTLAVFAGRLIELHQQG
UniProt P25109, 24-501 partner limits assumed: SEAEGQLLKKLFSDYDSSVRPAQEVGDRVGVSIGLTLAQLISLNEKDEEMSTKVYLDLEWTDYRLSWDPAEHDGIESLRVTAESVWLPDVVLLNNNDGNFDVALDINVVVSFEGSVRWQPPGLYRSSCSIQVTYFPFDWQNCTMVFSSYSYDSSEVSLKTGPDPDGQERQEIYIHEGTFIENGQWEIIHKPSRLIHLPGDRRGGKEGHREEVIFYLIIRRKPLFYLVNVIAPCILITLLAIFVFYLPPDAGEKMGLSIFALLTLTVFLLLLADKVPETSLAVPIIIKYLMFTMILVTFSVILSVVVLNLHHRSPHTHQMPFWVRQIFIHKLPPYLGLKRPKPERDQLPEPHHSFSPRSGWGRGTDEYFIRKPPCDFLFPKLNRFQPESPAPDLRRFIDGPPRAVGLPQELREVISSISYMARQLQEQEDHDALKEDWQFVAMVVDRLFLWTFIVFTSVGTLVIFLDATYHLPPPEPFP
UniProt P25110, 22-517 limits assumed: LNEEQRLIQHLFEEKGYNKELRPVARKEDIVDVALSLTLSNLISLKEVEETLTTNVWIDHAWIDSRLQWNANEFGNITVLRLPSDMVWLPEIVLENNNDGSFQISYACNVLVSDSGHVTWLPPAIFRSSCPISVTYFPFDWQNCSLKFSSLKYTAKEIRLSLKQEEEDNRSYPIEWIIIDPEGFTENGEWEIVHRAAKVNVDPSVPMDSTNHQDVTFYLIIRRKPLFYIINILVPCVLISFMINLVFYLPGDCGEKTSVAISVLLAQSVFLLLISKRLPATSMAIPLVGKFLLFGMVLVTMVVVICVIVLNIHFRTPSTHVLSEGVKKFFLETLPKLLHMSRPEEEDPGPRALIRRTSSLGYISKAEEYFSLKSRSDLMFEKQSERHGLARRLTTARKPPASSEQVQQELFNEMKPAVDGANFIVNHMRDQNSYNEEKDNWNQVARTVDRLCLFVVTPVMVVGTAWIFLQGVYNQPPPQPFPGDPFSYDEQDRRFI

Columns and labels:
[1] = tested on: neuronal nAChR subtype α4β2; conditions: at concentrations up to 10 μM; rat α4β2 in Xenopus laevis oocytes; 100 µM ACh; 3-min preincubation
[2] = target: neuronal nAChR subtype α3β2 (Rattus norvegicus, UniProt P04757+P12390); conditions: read-out: IC50, inhibition of neuronal nAChR α3β2; rat α3β2 in Xenopus laevis oocytes; -70 mV; 2-s pulses of 100 µM ACh; 3-min preincubation with toxin in static bath; ND96 pH 7.4; Hill fit; mean of at least 3 oocytes
[3] = target: neuronal nAChR subtype α7 (Rattus norvegicus, UniProt Q05941); conditions: read-out: IC50, inhibition of neuronal nAChR α7; rat α7 in Xenopus laevis oocytes; -70 mV; 2-s pulses of 100 µM nicotine; 3-min preincubation with toxin in static bath; ND96 pH 7.4; Hill fit; mean of at least 3 oocytes
[4] = target: muscle type (α1)2δγβ1 nAChR (Rattus norvegicus, UniProt P18916+P25108+P25109+P25110); conditions: rat (α1)2δγβ1 in Xenopus laevis oocytes

Row | Structure (SMILES) | activity on α4β2 nAChR [1] | pIC50 [2] | pIC50 [3] | activity on muscle nAChR ([4]; at concentrations up to 10 μM, 100 µM ACh, 3-min preincubation) | pIC50 ([4]; read-out: IC50, block of muscle type nAChR, -70 mV, 2-s pulses of 100 µM ACh, 3-min preincubation with toxin in static bath, ND96 pH 7.4, Hill fit, mean of at least 3 oocytes)
1 | CC(C)C[C@@H]1NC(=O)[C@H](Cc2c[nH]cn2)NC(=O)[C@@H]2CSSC[C@H](NC(=O)CN)C(=O)N[C@@H](CSSC[C@@H](C(N)=O)NC(=O)[C@H](C)NC(=O)[C@H](CC(N)=O)NC(=O)[C@@H]3CCCN3C(=O)[C@H](Cc3c[nH]cn3)NC(=O)[C@H](CCC(=O)O)NC1=O)C(=O)N[C@@H](CO)C(=O)N[C@@H](CC(N)=O)C(=O)N1CCC[C@H]1C(=O)N[C@@H](C(C)C)C(=O)N2 | No activity was detected | 6.89 | 5.82 | No activity was detected | –
2 | C[C@@H]1NC(=O)[C@@H]2CCCN2C(=O)[C@H](Cc2c[nH]cn2)NC(=O)[C@@H]2CSSC[C@@H](C(N)=O)NC(=O)[C@H](CO)NC(=O)[C@H](Cc3ccccc3)NC(=O)[C@H](Cc3c[nH]cn3)NC(=O)[C@H](CCCCN)NC(=O)CNC(=O)[C@H](CSSC[C@H](NC(=O)[C@H](CCCNC(=N)N)NC(=O)CNC(=O)[C@@H](N)CC(N)=O)C(=O)N2)NC1=O | – | – | – | – | 8.24 and 8.30
